Test results as given in paper PMC6934550 (Scientific Reports, 2019).

Tested on: EBOV/Mak
Set-up: species or system Rhesus macaques
Settings: rhesus monkey, in vivo

## CCN(CC)Cc1cc(Nc2ccnc3cc(Cl)ccc23)ccc1O [Amodiaquine dihydrochloride hydrate, amodiaquine dihydrochloride dihydrate]
  survival / efficacy: no in vivo efficacy

Where a name gives a salt, the structure may show the parent alone.
